# Results reported in patent US20080076762A1, “Novel 4-Aminopiperidine Derivatives” (priority 2004, published 2008).
# Amino acid sequences for entries named in this document (tags omitted). Residues count along the entry.
# UniProt Q8IM16, 122-449 limits assumed: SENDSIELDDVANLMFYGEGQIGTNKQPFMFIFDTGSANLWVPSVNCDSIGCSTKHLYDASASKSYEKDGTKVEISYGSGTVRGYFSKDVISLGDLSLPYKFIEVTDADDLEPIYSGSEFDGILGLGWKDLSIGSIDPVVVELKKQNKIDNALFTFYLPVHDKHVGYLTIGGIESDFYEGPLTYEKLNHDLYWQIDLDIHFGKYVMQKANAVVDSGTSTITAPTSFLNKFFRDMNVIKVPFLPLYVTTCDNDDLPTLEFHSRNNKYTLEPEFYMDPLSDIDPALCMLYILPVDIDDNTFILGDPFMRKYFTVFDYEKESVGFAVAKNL
# UniProt Q8I6V3, 125-453 limits assumed: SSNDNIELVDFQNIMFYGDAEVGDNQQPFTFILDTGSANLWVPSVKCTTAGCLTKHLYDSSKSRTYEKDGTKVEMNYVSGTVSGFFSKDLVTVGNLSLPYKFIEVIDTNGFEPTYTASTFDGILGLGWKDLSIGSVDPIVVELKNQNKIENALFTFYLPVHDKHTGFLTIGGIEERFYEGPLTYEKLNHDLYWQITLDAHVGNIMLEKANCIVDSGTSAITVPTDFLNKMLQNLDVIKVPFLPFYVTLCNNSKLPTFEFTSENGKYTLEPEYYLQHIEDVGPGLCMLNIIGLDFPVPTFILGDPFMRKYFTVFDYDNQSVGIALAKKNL
# Columns and labels:
# plasmepsin IV = plasmepsin IV (Plasmodium falciparum, UniProt Q8IM16); assay: FRET assay for plasmepsin IV; assay type: biochemical; conditions: read-out: IC50 (PM IV in nM), pH 5, 37° C., substrate M-2120 1 μM
# Protocol: (§1) The Fluorescence Resonance Energy Transfer (FRET) Assay for Plasmepsin II & IV and Human Cathepsin D & E:
# (§2) The assay conditions are selected according to reports in the literature.
# (§3) The FRET assay is performed in white polysorp plates (Fluoronunc, cat no 264 572) at 37° C. with a final volume of 80 μl.
# (§4) The assay buffer is composed of 50 mM sodium acetate pH 5, 12.5% (w/v) glycerol, and 0.1% (w/v) BSA. The reaction consists of the following components: 60 μl assay buffer, 4 μl inhibitor (in DMSO), 8 μl substrate (M-2120 from BACHEM) to a final concentration of 1 μM and 8 μl enzyme (plasmepsin II, plasmepsin IV or cathepsin E to a final amount of 0.015 μg/ml per assay tube, cathepsin D to a final amount of 0.05 μg/ml per assay tube). The inhibitor is pre-diluted in DMSO in a dilution plate and six concentrations are prepared in duplicate. The compounds are usually tested at a final concentration varying from 1 nM to 100 μM. The substrate is diluted using 50% DMSO-50% assay buffer and the enzyme using assay buffer. The mixtures are then incubated for 3 h at 37° C. and the fluorescence is determined at 1 and 3 hour with a FluoroStar Galaxy from BMG using excitation and emission filters of 355 and 520 nm, respectively.
# (§5) Auto-fluorescence of all the test substances is determined in assay buffer in the absence of substrate and enzyme and this value is subtracted from the final signal.
# (§6) The inhibitory activity of the compounds is expressed as IC50, which represents the concentration of compound that inhibits 50% of the maximal (uninhibited) enzyme activity.
# plasmepsin II = plasmepsin II (Plasmodium falciparum, UniProt Q8I6V3); assay: FRET assay for plasmepsin II; assay type: biochemical; conditions: read-out: IC50 (PM II in nM), pH 5, 37° C., substrate M-2120 1 μM
# Protocol: as §1, §2, §3, §4, §5, §6
Structure (SMILES),IC50 (plasmepsin IV),IC50 (plasmepsin II)
CCCCCc1ccc(C(=O)N(Cc2ccc(-c3cccc(C(F)(F)F)c3)cc2)C2CCN(CCC(C)C)CC2)nc1,406 nM,48 nM
CCCCCc1ccc(C(=O)N(Cc2ccc(NC(=O)c3cccc(C#N)c3)cc2)C2CCN(CCC(C)C)CC2)cc1,495 nM,60 nM
CCCCCc1ccc(C(=O)N(Cc2ccc(N(C)Cc3ccccc3)cc2)C2CCN(CCC(C)C)CC2)nc1,1880 nM,40 nM
CCCCCc1ccc(C(=O)N(Cc2ccc(-c3cccc(F)c3)cc2)C2CCN(CCC(C)C)CC2)nc1,27 nM,18 nM
CCCCCc1ccc(C(=O)N(Cc2ccc(C(=O)Nc3ccc(OC)cc3)cc2)C2CCN(CCC(C)C)CC2)cc1,–,44 nM
CCCCCc1ccc(C(=O)N(Cc2ccc(-c3ccccc3Cl)o2)C2CCN(CCC(C)C)CC2)cc1,276 nM,110 nM
CCCCCc1ccc(C(=O)N(Cc2ccc(NC(=O)c3ccc(C#N)cc3)cc2)C2CCN(CCC(C)C)CC2)cc1,434 nM,22 nM
CCCCCc1csc(C(=O)N(Cc2ccc(-c3ccc(C(=O)N4CCC(CCO)CC4)cc3)cc2)C2CCN(CCC(C)C)CC2)c1,–,43 nM
CCCCCc1ccc(C(=O)N(Cc2ccc(NC(=O)c3cccc(Cl)c3)cc2)C2CCN(CCC(C)C)CC2)cc1,580 nM,50 nM
CCCCCc1ccc(C(=O)N(Cc2ccc(C(=O)NCc3ccc4c(c3)OCO4)cc2)C2CCN(CCC(C)C)CC2)cc1,1820 nM,14 nM
CCCCCc1ccc(C(=O)N(Cc2ccc(-c3ccc(C)cc3)cc2)C2CCN(CCC(C)C)CC2)nc1,167 nM,22 nM
CCCCCc1ccc(C(=O)N(Cc2ccc(-c3cc(C(C)C)no3)cc2)C2CCN(CCC(C)C)CC2)cc1,897 nM,16 nM
CCCCCc1ccc(C(=O)N(Cc2ccc(-c3noc(-c4ccc(OC)c(OC)c4)n3)cc2)C2CCN(CCC(C)C)CC2)nc1,3440 nM,80 nM
CCCCCc1ccc(C(=O)N(Cc2ccc(-c3cc(C(C)(C)C)no3)cc2)C2CCN(CCC(C)C)CC2)cc1,–,43 nM
